Among the data in publication PMC12069340 (Frontiers in Cellular and Infection Microbiology, 2025) are SI values, retold here.

Counter-ions that a name gives are not always drawn. Some results are limits rather than exact numbers.

The data set has as its system A/PuertoRico/8/1934 (H1N1) virus. The data set is classed as cell-based, influenza A virus. The following applies: ratio CC50 / IC50.

As to `Cc1ccc(N(CC2=NCCN2)c2cccc(O)c2)cc1` [Phentolamine Mesylate], the SI is recorded as more than 80.0. Consider Promethazine HCl, for which the SI is listed as more than 8.6. In the case of Meclizine 2HCl, the SI is listed as 15.

With `Cc1cccc(C(C)c2cnc[nH]2)c1C` (stereo not shown) [Medetomidine HCl], the SI was more than 6.4. On to `OCc1cc(C(O)CNCCCCCCOCCCCc2ccccc2)ccc1O` (stereo not shown) [Salmeterol Xinafoate], for which the SI was 9.1. In the case of `CN(C)[C@@H](CCOc1cccc2ccccc12)c1ccccc1` [Dapoxetine HCl], the SI turned out to be 11.4. Regarding `OC(CNCC(O)C1CCc2cc(F)ccc2O1)C1CCc2cc(F)ccc2O1` (stereo not shown) [Nebivolol], the SI was determined as 3.4. As for `CN1CCCC(n2nc(Cc3ccc(Cl)cc3)c3ccccc3c2=O)CC1` (stereo not shown) [Azelastine HCl], the SI was found to be 6.6.

`O=C(c1ccc(OCCCc2cnc[nH]2)cc1)C1CC1` [Ciproxifan]: the SI is listed as more than 57.1. As for `Cc1ccc(OCC(O)C(C)NC(C)C)c2c1CCC2` (stereo not shown) [ICI-118551], the SI is given as more than 13.8. Take `CCCN(CCc1cccs1)[C@H]1CCc2c(O)cccc2C1` [Rotigotine]: the SI was more than 63.5. Consider `O=C(C[S+]([O-])Cc1ccco1)NC/C=C\COc1cc(CN2CCCCC2)ccn1` (stereo not shown) [Lafutidine], for which the SI is more than 5.4. On to `CCCN1C[C@H](CSC)C[C@@H]2c3cccc4[nH]cc(c34)C[C@H]21` [Pergolide mesylate], for which the SI was more than 11.3.
